Laboratory results from PMC4014563, “A High-Throughput Method to Examine Protein-Nucleotide Interactions Identifies Targets of the Bacterial Transcriptional Regulatory Protein Fur”.
The exact form of at least one protein or probe is not confirmed. At least one verdict rests on a figure or table, not on a statement of the authors. Where a protein sequence is shown, tags need not be part of it.

Molecular target: T1, Fur (ferric uptake regulator) (Neisseria gonorrhoeae F62) (UniProt Q51008)
T1 sequence (looked up, limits assumed): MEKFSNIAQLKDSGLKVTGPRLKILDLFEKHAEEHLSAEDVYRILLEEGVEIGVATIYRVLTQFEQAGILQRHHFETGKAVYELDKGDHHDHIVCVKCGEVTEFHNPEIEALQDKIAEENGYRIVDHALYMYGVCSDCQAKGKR
Test: competition with a labelled probe
Settings: cold fur competitor 50-1000x against fur, NGO0073 and NGO0101 probes (EMSA); 5' amino-C6 on strand 1 (IRIS); 20 mM Tris-Cl pH 7.9, 5 mM MgCl2, 40 mM KCl, 0.125 mM MnCl2, 2 mM DTT, 10% glycerol, 0.19 ug/uL poly dIdC (EMSA also 3.125 ug/uL BSA), RT; IRIS 2 hr; recombinant protein; label: surface-immobilized (IRIS), 32P (EMSA)

## CTGCTTGAATATTTTATAAAAGCGAACGATAATCATACGCTTAAGCGGT (double strand) [fur promoter Fur box probe]
  binding result: binds
